Measured values from several laboratories, pooled; numbers as filed in NIAID ChemDB.

Shared fields: cytotoxicity tests; cells: SupT1; read-out: CC50

CCn is the concentration with n% toxicity to the cells.

compound | method | value
Nc1ncc2c(ncn2COC(CO)CO)n1 | - | 0.051 µM
COc1cc(O)c2c(c1O)C1O[C@]3(C)C[C@H]1[C@@H](CO3)C2=O | MTT | 250.4 µg/mL
CCc1cccn1-c1ccsc1C(=O)O | WST / absorbance | 520 µM
C=C1CN(S(=O)(=O)c2ccc(C)cc2)CCCN(Cc2ccncc2)CCCN(S(=O)(=O)c2ccc(C)cc2)C1 | trypan blue / propidium iodide | >75 µM
CC(C)=CCC/C(C)=C/CC/C(C)=C/Cc1c(O)cc2c(c1OS(=O)(=O)O)CN(CCCC(=O)O)C2=O | WST / absorbance | >100 µM
C=C1CN(S(=O)(=O)c2ccc(Br)cc2)CCCN(Cc2ccccc2)CCCN(S(=O)(=O)c2ccc(Br)cc2)C1 | trypan blue / propidium iodide | >75 µM
O[C@@H]1[C@H](O)[C@H](O)CO[C@H]1n1c(Br)nc2cc(Cl)c(Cl)cc21 | - | >102 µM
C[C@H]1CC[C@@H]2C(C)(C)[C@H](O)CC[C@]2(C)[C@@]12Cc1c(O)cc3c(c1O2)CN(CCCC(=O)O)C3=O | WST / absorbance | 100.2 µM
C=C1CN(S(=O)(=O)c2ccc(C)cc2)CCCN(CC2CCCCC2)CCCN(S(=O)(=O)c2ccc(C)cc2)C1 | trypan blue / propidium iodide | 37.9 µM
CCCCCCCCCCC[C@@H]1CC(=O)N[C@@H](CCC(=O)O)C(=O)N[C@@H](CC(C)C)C(=O)N[C@H](CC(C)C)C(=O)N[C@@H](C(C)C)C(=O)N[C@@H](CC(=O)O)C(=O)N[C@H](CC(C)C)C(=O)N[C@@H](CC(C)C)C(=O)O1 | WST / absorbance | >100 µM
COC1=CC(=O)c2c(O)c(C)c3cc(C)oc3c2C1=O | MTT | 7.5 µg/mL
C=C1CN(S(=O)(=O)c2ccc(C)cc2)CCCN(Cc2ccccn2)CCCN(S(=O)(=O)c2ccc(C)cc2)C1 | trypan blue / propidium iodide | >75 µM
CCC(C)CCCCCCCC[C@@H](O)CC(=O)N[C@@H](CCC(=O)O)C(=O)N[C@@H](CC(C)C)C(=O)N[C@H](CC(C)C)C(=O)N[C@H](C(=O)N[C@@H](CC(=O)O)C(=O)N[C@H](CC(C)C)C(=O)N[C@@H](CC(C)C)C(=O)O)C(C)C | WST / absorbance | >100 µM
O=c1[nH]c(=O)n([C@H]2C[C@H](O)[C@@H](CO)O2)cc1/C=C/Br | - | 20 µM
C=C1CN(S(=O)(=O)c2ccc(C)cc2)CCCN(Cc2ccccc2)CCCN(S(=O)(=O)c2ccc(C)cc2)C1 | - | 142 µM
COC(=O)CC[C@@H]1NC(=O)C[C@@H](CCCCCCCC(C)C)OC(=O)[C@H](C(C)C)NC(=O)[C@@H](CC(C)C)NC(=O)[C@H](CC(=O)OC)NC(=O)[C@H](C(C)C)NC(=O)[C@@H](CC(C)C)NC(=O)[C@H](CC(C)C)NC1=O | WST / absorbance | 86.7 µM
OC[C@H]1O[C@@H](n2c(Br)nc3cc(Cl)c(Cl)cc32)[C@H](O)[C@@H]1O | - | 70 µM
CC(C)=CCC/C(C)=C/CC/C(C)=C/Cc1c(O)cc2c(c1O)CNC2=O | WST / absorbance | 99.5 µM
Fc1ccc(OCCC(Cn2ccnc2)c2ccc(Cl)cc2Cl)cc1 | WST / absorbance | 47.5 µM
NC1=NC2C(C=CN2CC(CO)CCO)C(=O)N1 | - | 107 µM
NC(=O)c1c(Cl)c(-c2cccnc2)n2c1CCCC2 | - | 236 µM
Cc1ccc(S(=O)(=O)N2CCCN(Cc3ccccc3)CCCN(S(=O)(=O)c3ccc(C)cc3)CCC2)cc1 | trypan blue / propidium iodide | >75 µM
CC(C)CCCCCCCCC[C@@H]1CC(=O)N[C@@H](CCC(=O)O)C(=O)N[C@@H](CC(C)C)C(=O)N[C@H](CC(C)C)C(=O)N[C@@H](C(C)C)C(=O)N[C@@H](CC(=O)O)C(=O)N[C@H](CC(C)C)C(=O)N[C@@H](CC(C)C)C(=O)O1 | WST / absorbance | >100 µM
C=C1CN(S(=O)(=O)c2ccc(C)cc2)CCCN(CC2CC2)CCCN(S(=O)(=O)c2ccc(C)cc2)C1 | trypan blue / propidium iodide | >75 µM
CC(C)CCCCCCC[C@@H]1CC(=O)N[C@@H](CCC(=O)O)C(=O)N[C@@H](CC(C)C)C(=O)N[C@H](CC(C)C)C(=O)N[C@@H](C(C)C)C(=O)N[C@@H](CC(=O)O)C(=O)N[C@H](CC(C)C)C(=O)N[C@@H](C(C)C)C(=O)O1 | WST / absorbance | 87 µM
CC(C)Nc1nc2cc(Cl)c(Cl)cc2n1[C@H]1O[C@@H](CO)[C@H](O)[C@@H]1O | neutral red | >108 µM
C=C1CN(S(=O)(=O)c2ccc(C)cc2)CCCN(C(C)=O)CCCN(S(=O)(=O)c2ccc(C)cc2)C1 | trypan blue / propidium iodide | >75 µM

Rows are shuffled and stem from different studies. Blank or dashed fields: not listed here.